Literature values, collected in patent publication US20090209937A1 (priority 2007, published 2009).

Sequences of proteins named here, by UniProt entry; tags and fusion partners are left off.
UniProt Q02294, whole entry, looked up: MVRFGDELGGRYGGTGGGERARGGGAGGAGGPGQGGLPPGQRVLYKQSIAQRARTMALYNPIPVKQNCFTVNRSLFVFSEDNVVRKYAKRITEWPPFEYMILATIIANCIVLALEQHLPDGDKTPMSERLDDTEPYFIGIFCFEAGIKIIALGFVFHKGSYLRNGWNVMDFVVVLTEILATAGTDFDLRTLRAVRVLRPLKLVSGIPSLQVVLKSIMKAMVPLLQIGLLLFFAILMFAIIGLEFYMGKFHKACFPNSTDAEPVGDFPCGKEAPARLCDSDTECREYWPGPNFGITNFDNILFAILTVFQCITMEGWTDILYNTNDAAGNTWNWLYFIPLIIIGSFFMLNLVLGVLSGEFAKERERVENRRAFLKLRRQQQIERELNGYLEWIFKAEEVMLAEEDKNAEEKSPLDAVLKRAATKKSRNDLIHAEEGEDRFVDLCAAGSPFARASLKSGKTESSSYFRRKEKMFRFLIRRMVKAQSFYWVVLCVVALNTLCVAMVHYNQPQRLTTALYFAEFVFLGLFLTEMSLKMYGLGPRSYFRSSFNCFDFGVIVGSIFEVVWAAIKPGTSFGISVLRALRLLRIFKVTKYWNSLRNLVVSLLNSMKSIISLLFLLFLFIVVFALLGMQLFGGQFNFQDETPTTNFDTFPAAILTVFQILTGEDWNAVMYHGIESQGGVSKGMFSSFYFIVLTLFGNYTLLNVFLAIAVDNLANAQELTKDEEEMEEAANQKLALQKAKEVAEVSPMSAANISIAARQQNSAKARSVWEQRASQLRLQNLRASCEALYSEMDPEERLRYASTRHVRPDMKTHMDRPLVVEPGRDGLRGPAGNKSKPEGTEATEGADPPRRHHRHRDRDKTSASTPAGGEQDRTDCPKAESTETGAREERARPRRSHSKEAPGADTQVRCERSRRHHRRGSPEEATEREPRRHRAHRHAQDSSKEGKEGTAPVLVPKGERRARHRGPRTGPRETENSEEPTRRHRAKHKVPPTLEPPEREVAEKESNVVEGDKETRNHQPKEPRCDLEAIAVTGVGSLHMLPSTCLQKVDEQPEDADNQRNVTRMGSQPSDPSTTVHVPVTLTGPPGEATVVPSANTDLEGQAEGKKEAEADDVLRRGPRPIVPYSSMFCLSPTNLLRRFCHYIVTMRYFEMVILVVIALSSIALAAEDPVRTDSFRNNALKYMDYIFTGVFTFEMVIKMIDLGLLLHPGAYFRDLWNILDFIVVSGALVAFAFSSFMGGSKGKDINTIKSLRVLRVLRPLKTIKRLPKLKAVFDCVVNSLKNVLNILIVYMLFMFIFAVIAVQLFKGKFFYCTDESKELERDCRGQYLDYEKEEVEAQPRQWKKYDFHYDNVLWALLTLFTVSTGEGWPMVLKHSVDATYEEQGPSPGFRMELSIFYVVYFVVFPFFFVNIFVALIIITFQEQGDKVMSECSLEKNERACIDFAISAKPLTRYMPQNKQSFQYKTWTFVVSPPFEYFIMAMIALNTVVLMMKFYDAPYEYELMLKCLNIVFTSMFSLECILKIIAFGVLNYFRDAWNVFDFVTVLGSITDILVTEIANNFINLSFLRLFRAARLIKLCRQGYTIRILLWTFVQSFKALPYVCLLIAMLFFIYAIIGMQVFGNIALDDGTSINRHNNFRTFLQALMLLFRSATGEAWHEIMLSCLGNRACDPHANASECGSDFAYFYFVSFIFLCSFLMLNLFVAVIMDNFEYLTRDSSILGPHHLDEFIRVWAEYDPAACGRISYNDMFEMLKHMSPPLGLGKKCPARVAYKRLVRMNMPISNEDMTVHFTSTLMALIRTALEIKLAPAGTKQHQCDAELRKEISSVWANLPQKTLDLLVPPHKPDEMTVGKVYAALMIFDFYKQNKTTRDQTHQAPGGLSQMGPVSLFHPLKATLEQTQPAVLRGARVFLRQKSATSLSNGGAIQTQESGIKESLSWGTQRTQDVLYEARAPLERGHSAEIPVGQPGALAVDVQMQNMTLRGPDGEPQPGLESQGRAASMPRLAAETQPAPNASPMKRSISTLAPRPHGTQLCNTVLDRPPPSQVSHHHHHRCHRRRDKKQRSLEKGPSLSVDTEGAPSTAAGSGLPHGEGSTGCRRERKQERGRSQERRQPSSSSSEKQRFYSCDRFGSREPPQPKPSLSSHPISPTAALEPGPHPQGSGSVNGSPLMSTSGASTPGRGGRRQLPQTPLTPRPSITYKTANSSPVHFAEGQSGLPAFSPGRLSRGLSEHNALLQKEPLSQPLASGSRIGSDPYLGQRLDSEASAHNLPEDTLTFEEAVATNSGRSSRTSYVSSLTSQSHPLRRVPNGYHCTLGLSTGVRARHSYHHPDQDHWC

Target: expressed recombinant rat Cav2.2 calcium channel subunits (Rattus norvegicus, UniProt Q02294)
Details: cited from earlier work

ω-conotoxin GVIA [ω-CTX-G]
Kd: ~100 nM
